Results from ChEMBL document CHEMBL1156829 (Proc Natl Acad Sci U S A, 2008).

Experiments:
Plasmodium falciparum [1] = test: NOVARTIS: Inhibition of Plasmodium falciparum W2 (drug-resistant) proliferation in erythrocyte-based infection assay; format: functional, organism-based
Plasmodium falciparum [2] = test: NOVARTIS: Inhibition of Plasmodium falciparum 3D7 (drug-susceptible) proliferation in erythrocyte-based infection assay; format: functional, organism-based

**Q.** For `Cc1nc(Nc2cccc([N+](=O)[O-])c2)nc(Nc2cccc([N+](=O)[O-])c2)c1[N+](=O)[O-]`, which EC50 (Plasmodium falciparum [1]) is on record?
**A.** 645 nM

**Q.** And the EC50 (Plasmodium falciparum [2])?
**A.** 6750 nM

**Q.** Which results are given for `O=[N+]([O-])c1ccc(NCCN(CCO)c2ccc([N+](=O)[O-])cc2[N+](=O)[O-])c(Cl)c1`?
**A.** EC50 (Plasmodium falciparum [1]): 529 nM; EC50 (Plasmodium falciparum [2]): 668 nM
